Anti-infective test results gathered from many reports (values: NIAID ChemDB through PubChem).

All rows: enzyme or target tests; agent: Hepatitis C virus; target: NS5B polymerase; read-out: IC50

ICn: concentration for n% inhibition. Rows are shuffled and stem from different studies. Blank or dashed fields: not listed here. a–b is a range or a potency band.

SMILES,strain,value
CCCC1(CC(=O)O)CCCC2c3c(F)ccc(F)c3NC21,-,>33 µM
O=C1CC(c2ccccc2)CC2=C1C(c1ccc(Cl)cc1)Nc1ccc(C(=O)c3ccccc3)cc1N2,-,>42.7 µM
CC(O)(Nc1ccc(Cl)cc1)c1cc(C(=O)N[C@H]2CCCC[C@@H]2OCc2ccccc2)n(CC(=O)N[C@H]2CCCC[C@@H]2OCc2ccccc2)n1,-,≥1 µM
CCC(=O)N1c2ccccc2NC2=C(C(=O)CC(c3ccc(OC)c(OC)c3)C2)C1c1ccccc1OC(C)CC,-,>33.3 µM
O=C(O)/C(=C/c1ccc(-c2ccccc2Cl)s1)NC(=O)c1ccc([N+](=O)[O-])cc1,-,<10 µM
CCCC1(CC(=O)O)CCCC2c3c(F)cc(F)cc3NC21,-,30 µM
CC(C)CCN1C(=O)C(C2=NS(=O)(=O)c3ccccc3N2)=C(O)[C@@H]1C,-,1.44 µM
O=C(NC1(C(=O)Nc2ccc3c(c2)cc(C(=O)O)n3Cc2ccccc2)CCCC1)c1ccc2c(c1)nc(-c1ccoc1)n2C1CCCCC1,-,0.5–5 µM
Cc1c(Cl)cccc1S(=O)(=O)Nc1nc(C(=O)N[C@H]2CCCC[C@@H]2OCc2ccccc2)n(CC(=O)N[C@H]2CCCC[C@@H]2OCc2ccccc2)n1,-,0.1–1 µM
CCCC1(CC(=O)O)CCCC2c3c(C#N)ccc(C(N)=O)c3NC21,-,>33 µM
CCN(CC)c1ccc(C2CC(=O)C3=C(C2)Nc2ccccc2N(C(C)=O)C3c2ccc(OC)cc2)cc1,-,>42.7 µM
COc1cc(C(=O)N2[C@@H](c3nccs3)[C@@H](c3cnccn3)C[C@@]2(CCS)C(=O)O)ccc1C(C)(C)C,Genotype 1A,>1 µM
O=C(Cn1nc(C(=O)NNc2ccc(O)cc2)cc1C(=O)N[C@H]1CCCC[C@@H]1OCc1ccccc1)N[C@H]1CCCC[C@@H]1OCc1ccccc1,-,0.1–1 µM
COc1ccc(OC)c(C2Nc3ccc(C(=O)c4ccccc4)cc3NC3=C2C(=O)CCC3)c1,-,>33.3 µM
CC(C)CCN1C(=O)C(C2=NS(=O)(=O)c3ccccc3N2)=C(O)[C@H]1C(C)C,-,6.4 µM
N#Cc1ccc(Br)cc1COc1cccc(C(=O)CC(=O)C(=O)O)c1,-,0.1 µM
CC(=O)Nc1ccc(-c2ccc(O)cc2)c(COc2ccc(C3Nc4cc(C(=O)O)ccc4N3C3CCCCC3)cc2)c1,-,0.05 µM
CC(NC(=O)c1ccc2c(c1)nc(-c1ccoc1)n2C1CCCCC1)C(=O)Nc1cccc(-c2cccc(N)c2)c1,-,0.5–5 µM
O=C(Cn1nc(C(=O)NCc2ccncc2)cc1C(=O)N[C@H]1CCCC[C@@H]1OCc1ccccc1)Nc1ccccc1OCc1ccccc1,-,0.1–1 µM
CC1(C)CC(=O)C2=C(C1)Nc1ccc(C(=O)c3ccccc3)cc1NC2c1cccc(Cl)c1,-,>42.7 µM
CC(C)CCN1C(=O)C(C2=NS(=O)(=O)c3ccccc3N2)=C(O)[C@@H]1c1ccccc1,-,0.3 µM
CC(NC(=O)c1ccc2c(c1)nc(-c1ccoc1)n2C1CCCCC1)C(=O)Nc1cccc(OCC(=O)O)c1,-,0.5–5 µM
CC(C)CCN1C(=O)C(C2=NS(=O)(=O)c3ccccc3N2)=C(O)C12CC2,-,3.47 µM
CCN(CC)c1ccc(C2CC(=O)C3=C(C2)Nc2ccccc2N(C(C)=O)C3c2ccccc2)cc1,-,>42.7 µM
CCC[C@]1(CC(=O)O)OCCc2c1[nH]c1c(C)ccc(C#N)c21,167-A1 genotype 3A,1.8 µM
C[C@@H]1CCCC[C@H]1n1c(-c2ccccn2)nc2cc(C(=O)NC3(C(=O)Nc4ccc(/C=C/C(=O)O)cc4)CCCC3)ccc21,-,0.5–5 µM
CC(C)CCN1C(=O)C(C2=NS(=O)(=O)c3ccccc3N2)=C(O)[C@@H]1C1CCCCC1,-,0.019 µM
O=C(O)/C(=C/c1ccc(-c2ccccc2Cl)s1)NC(=O)c1cc(O)ccc1O,-,>30 µM
C[C@H]1CCC[C@H](C)C1n1c(-c2cccc3c2OCO3)nc2cc(C(=O)NC3(C(=O)Nc4ccc(/C=C/C(=O)O)cc4)CCCC3)ccc21,-,0.5–5 µM
CC(C)(C)COc1ccccc1NC(=O)c1cc(C(=O)O)nn1CC(=O)N[C@H]1CCCC[C@@H]1OCc1ccccc1,-,0.1–1 µM
O=C(NC1(C(=O)Nc2ccc3oc(=O)ccc3c2)CCCC1)c1ccc2c(c1)nc(-c1ccoc1)n2C1CCCCC1,-,5–25 µM
Cc1ccc(OCc2ccccc2)c(NC(=O)c2cc(C(=O)O)nn2CC(=O)N[C@H]2CCCC[C@@H]2OCc2ccccc2)c1,-,0.041 µM
CC(NC(=O)c1ccc2c(c1)nc(-c1ccoc1)n2C1CCCCC1)C(=O)Nc1ccccc1-c1ccc(C(=O)O)o1,-,0.5–5 µM
CC(=O)Nc1ccc(C(=O)N/C(=C\c2ccc(-c3ccccc3)o2)C(=O)O)cc1,-,11–30 µM
CN(C(=O)Cn1nc(C(=O)Nc2ccccc2-c2ccccc2)cc1C(=O)N[C@H]1CCCC[C@@H]1OCc1ccccc1)[C@H]1CCCC[C@@H]1OCc1ccccc1,-,≥1 µM
COc1cc(C(=O)N2[C@@H](c3ncc(C)s3)[C@@H](c3cnccn3)C[C@@]2(Cn2cccn2)C(=O)O)ccc1C(C)(C)C,Genotype 1A,<0.15 µM
CCC(C)[C@H]1C(O)=C(C2=NS(=O)(=O)c3ccccc3N2)C(=O)N1CCC(C)C,-,0.55 µM
Cc1ccccc1C(=O)N/C(=C\c1ccc(-c2ccccc2Cl)s1)C(=O)O,-,11–30 µM
COc1cc(C(=O)N2[C@@H](c3nccs3)[C@@H](c3cnccn3)C[C@@]2(Cc2cscn2)C(=O)O)ccc1C(C)(C)C,Genotype 1A,<0.15 µM
CC1(C)CC(=O)C2=C(C1)Nc1ccc(C(=O)c3ccccc3)cc1NC2c1ccccc1Cl,-,>42.7 µM
COc1cc(C(=O)N2[C@@H](c3nccs3)[C@@H](c3cnccn3)C[C@@]2(Cn2cccn2)C(=O)O)ccc1C(C)(C)C,Genotype 1A,<0.15 µM
O=C(O)/C(=C/c1ccc(-c2ccccc2Cl)s1)NC(=O)c1ccco1,-,<10 µM
COc1ccc(C2Nc3cc(C(=O)c4ccccc4)ccc3NC3=C2C(=O)CC(C)(C)C3)cc1OC,-,>42.7 µM
COc1cc(C(=O)N2[C@@H](c3nccs3)[C@@H](c3cnccn3)C[C@@]2(Cc2cnc[nH]2)C(=O)O)ccc1C(C)(C)C,Genotype 1A,>1 µM